Data published in article PMC3179954, “A bacterial PriB with weak single-stranded DNA binding activity can stimulate the DNA unwinding activity of its cognate PriA helicase” (BMC Microbiology, 2011).
For at least one entry, the source does not settle the construct or the ends of the probe. Tags and fusion partners may be left off the protein sequences shown.

Assays:
[1] = target: T1, PriA helicase (Neisseria gonorrhoeae) (UniProt Q5F6V8); experiment: fluorescence polarization; details: 20 mM Tris-HCl pH 8, 10% glycerol, 50 mM NaCl, 1 mM 2-mercaptoethanol, 0.1 mg/ml BSA, 1 nM fluorescein-labeled DNA, 25 C; recombinant protein; label: 3' fluorescein on S5 (nascent lagging strand); letters put together from the description
T1 sequence (looked up, limits assumed): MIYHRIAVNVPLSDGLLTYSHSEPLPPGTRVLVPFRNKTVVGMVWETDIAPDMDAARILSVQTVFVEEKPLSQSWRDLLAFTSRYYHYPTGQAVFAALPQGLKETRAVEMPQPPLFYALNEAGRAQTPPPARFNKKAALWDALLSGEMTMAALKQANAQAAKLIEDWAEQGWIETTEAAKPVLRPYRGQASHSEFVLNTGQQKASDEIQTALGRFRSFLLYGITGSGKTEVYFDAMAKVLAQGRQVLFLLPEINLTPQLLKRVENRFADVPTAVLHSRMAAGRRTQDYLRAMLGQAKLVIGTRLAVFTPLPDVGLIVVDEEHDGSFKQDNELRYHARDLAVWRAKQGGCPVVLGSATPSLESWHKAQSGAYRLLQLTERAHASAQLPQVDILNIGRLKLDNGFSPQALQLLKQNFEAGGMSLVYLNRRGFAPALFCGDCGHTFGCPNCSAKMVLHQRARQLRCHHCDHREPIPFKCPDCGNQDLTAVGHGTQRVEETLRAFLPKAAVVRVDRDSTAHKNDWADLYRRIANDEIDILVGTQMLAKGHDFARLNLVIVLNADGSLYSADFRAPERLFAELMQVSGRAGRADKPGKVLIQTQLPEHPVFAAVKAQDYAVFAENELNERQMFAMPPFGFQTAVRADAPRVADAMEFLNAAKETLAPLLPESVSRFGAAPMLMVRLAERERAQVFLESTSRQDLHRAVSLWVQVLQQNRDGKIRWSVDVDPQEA

[2] = target: T2, PriB (Neisseria gonorrhoeae) (UniProt Q5F924); experiment: fluorescence polarization; details: 20 mM Tris-HCl pH 8, 10% glycerol, 50 mM NaCl, 1 mM 2-mercaptoethanol, 0.1 mg/ml BSA, 1 nM fluorescein-labeled DNA, 25 C; recombinant protein; label: 3' fluorescein on S5 (nascent lagging strand); letters put together from the description
T2 sequence (looked up, limits assumed): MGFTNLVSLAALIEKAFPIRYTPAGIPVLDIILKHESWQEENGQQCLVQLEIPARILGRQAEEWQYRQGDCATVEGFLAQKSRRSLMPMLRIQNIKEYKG

## GTCGGATCCTCTAGACAGCTCCATGATCACTGGCACTGGTAGAATTCGGC / GCCGAATTCTACCAGTGCCAGTGAT / AACGTCATAGACGATTACATTGCTACATGGAGCTGTCTAGAGGATCCGAC / TAGCAATGTAATCGTCTATGACGTT [Fork 2]
[1]
  Kd: 0.134 µM
[2]
  Kd: 0.69 µM
